# Measured values as given in patent US20100086555A1 (INSTITUTE FOR RESEARCH IN BIOMEDICINE, published 2010).
# B1: FE17 (antibody, V domains shown)
# VH: QPQLQESGPGLVRPSETLSLTCTVSGDSVTRGGFYWGWIRQPPGKGLEWIGSIYYNYNIYHSPSLKSRVSLSVDTSKNQVSLKLASVTAADTAVYYCARHYPYYDLPTGFYSQFDFWGQGTPVTVSS
# VL: QSVLTQPPSASGAPGQRVTLSCSGSGSNIGSNTVSWYQQLPGTAPKLLVFTNNQRPSGVPDRFSGSKSGTSASLAISGLQSEDEADYYCAAWDDSLNGQLFGGGTKLTVL
# Columns and labels:
# Assay in all cases: cell-based or functional assay
# [1] = molecular target: T1, H1 HA A/CA/07/09 (on infectious virus) (influenza A virus A/CA/07/09 (H1N1))
# [2] = molecular target: T2, H1 HA A/swine/Iowa/31 (on infectious virus) (influenza A virus A/swine/Iowa/31 (H1N1))
# [3] = molecular target: T3, H1 HA A/PR/8/34 (on infectious virus) (influenza A virus A/PR/8/34 (H1N1), UniProt P03452 18-565)
# [4] = molecular target: T4, H5 HA A/VN/1203/04 (on pseudotypes and on infectious virus) (influenza A virus A/VN/1203/04 (H5N1))
# [5] = molecular target: T5, H1 HA A/NJ/76 (on infectious virus) (influenza A virus A/NJ/76 (H1N1))
# [6] = molecular target: T6, H1 HA A/NC/20/99 (on infectious virus) (influenza A virus A/NC/20/99 (H1N1))
# [7] = molecular target: T3, H1 HA A/PR/8/34 (on infectious virus); remark: listed apart in the source
# [8] = molecular target: T4, H5 HA A/VN/1203/04 (on pseudotypes and …); remark: listed apart in the source
# [9] = molecular target: T7, H1 HA A/SI/3/06 (on infectious virus) (influenza A virus A/SI/3/06 (H1N1))
# [10] = molecular target: H3 HA A/WY/3/03 (on infectious virus) (influenza A virus A/WY/3/03 (H3N2))
# [11] = molecular target: T6, H1 HA A/NC/20/99 (on infectious virus); remark: listed apart in the source
# [12] = molecular target: T8, H5 HA A/VN/1194/04 (on pseudotypes) (influenza A virus A/VN/1194/04 (H5N1))
# [13] = molecular target: H9 HA A/ck/HK/G9/97 (on infectious virus) (influenza A virus A/ck/HK/G9/97 (H9N2))
# [14] = molecular target: T4, H5 HA A/VN/1203/04 (on pseudotypes and …); remark: listed apart in the source
# [15] = molecular target: T7, H1 HA A/SI/3/06 (on infectious virus); remark: listed apart in the source
# [16] = molecular target: T1, H1 HA A/CA/07/09 (on infectious virus); remark: listed apart in the source
# [17] = molecular target: T2, H1 HA A/swine/Iowa/31 (on infectious …); remark: listed apart in the source
# [18] = molecular target: T3, H1 HA A/PR/8/34 (on infectious virus); remark: listed apart in the source
# [19] = molecular target: T4, H5 HA A/VN/1203/04 (on pseudotypes and …); remark: listed apart in the source
# [20] = molecular target: T5, H1 HA A/NJ/76 (on infectious virus); remark: listed apart in the source
# [21] = molecular target: H5 HA A/WS/Mong/244/05 (on pseudotypes) (influenza A virus A/WS/Mong/244/05 …)
# [22] = molecular target: H5 HA A/HK/213/03 (on pseudotypes) (influenza A virus A/HK/213/03 (H5N1))
# [23] = molecular target: T8, H5 HA A/VN/1194/04 (on pseudotypes); remark: listed apart in the source
# [24] = molecular target: H5 HA A/INDO/5/05 (on pseudotypes and on infectious virus) (influenza A virus A/INDO/5/05 (H5N1))
# [25] = molecular target: H5 HA A/Anhui/1/5 (on pseudotypes) (influenza A virus A/Anhui/1/5 (H5N1))
# [26] = molecular target: H5 HA A/HK/491/97 (on pseudotypes) (influenza A virus A/HK/491/97 (H5N1))
# [27] = molecular target: T4, H5 HA A/VN/1203/04 (on pseudotypes and …); remark: listed apart in the source
binder,measurement,setting,value
B1,Neutralization of infectious viruses (IC50),[1],> 50 µg/mL
same,Neutralization of infectious viruses (IC50),[2],0.1 µg/mL
same,Neutralization of infectious viruses (IC50),[3],1 µg/mL
same,Neutralization of infectious viruses (IC50),[4],6 µg/mL
same,Neutralization of infectious viruses (IC50),[5],> 50 µg/mL
same,Neutralization of infectious viruses (IC50),[6],0.3 µg/mL
same,Neutralization of infectious viruses (IC50),[7],2 µg/mL
same,Neutralization of infectious viruses (IC50),[8],6 µg/mL
same,Neutralization of infectious viruses (IC50),[9],< 0.04 µg/mL
same,Neutralization H3N2 IC50,[10],16.6 µg/mL
same,Neutralization H1N1 IC90,[11],0.05 µg/mL
same,Neutralization H5pp IC90,[12],0.3 µg/mL
same,Neutralization H9N2 IC50,[13],16.6 µg/mL
same,Neutralization H5N1 IC50,[14],0.7 µg/mL
same,Neutralization H1N1 IC90,[15],0.2 µg/mL
same,Hemagglutination inhibition titer,[16],< 5
same,Hemagglutination inhibition titer,[17],> 1280
same,Hemagglutination inhibition titer,[18],> 1280
same,Hemagglutination inhibition titer,[19],> 1280
same,Hemagglutination inhibition titer,[20],< 5
same,Neutralization of HA-pseudotypes (IC90),[21],1.8 µg/mL
same,Neutralization of HA-pseudotypes (IC90),[22],0.367 µg/mL
same,Neutralization of HA-pseudotypes (IC90),[23],0.367 µg/mL
same,Neutralization of HA-pseudotypes (IC90),[24],> 50 µg/mL
same,Neutralization of HA-pseudotypes (IC90),[25],> 50 µg/mL
same,Neutralization of HA-pseudotypes (IC90),[26],0.099 µg/mL
same,Neutralization of HA-pseudotypes (IC90),[27],0.525 µg/mL

# Like-named read-outs stand apart in the source and are kept apart here.
